{"source": "PubChem BioAssay AID504761 – Drosophila RNAi Screening Center, 2011", "assay": "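Fly genes whose silencing reduces dengue virus type 2 infection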 (primary screen)", "cell system": "D.Mel-2 cells from Drosophila", "reagent": "long dsRNA against Drosophila genes", "treatment": "infection with dengue virus type 2; dose and infection time not stated", "detection": "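Per well on two replicate plates, imaging gave the percent of cells positive for viral envelope protein, ranked by infection, and a nuclear count of cells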", "direction": "infection score: higher = more virus-infected cells", "rule for the call": "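Low infection ranks in the two replicates (chance level up to 0.065) followed by a retest with a 1.5-fold or larger significant decrease, p below 0.05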", "calls": "active = confirmed: knock-down lowers infection; inactive = not picked or not confirmed", "note": "In all, the deposit lists about 22,000 reagents; this is an unselected part of those with a known target gene and a result. Of all reagents, 116 (0.52%) got an active call. 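Calls depend on retest data that are not deposited; infection was ranked per plate without normalising between plates; the unit of the infection score is not given.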 Reagents against one gene are numbered here. A plus sign joins genes that one reagent is predicted to hit. Further read-outs or replicates are left out here. Not stated in the record: the amount of reagent, the time to read-out."}
{"gene": "CG5001", "reagent": 1, "infection score, replicate 1": 6.6, "Outcome": "inactive"}
{"gene": "CG5001", "reagent": 2, "infection score, replicate 1": 22.7, "Outcome": "inactive"}
{"gene": "Pif1A", "reagent": 1, "infection score, replicate 1": 15.5, "Outcome": "inactive"}
{"gene": "att-ORFB + DPCoAC", "reagent": 1, "infection score, replicate 1": 2.07, "Outcome": "inactive"}
{"gene": "ZnT77C", "reagent": 1, "infection score, replicate 1": 17.4, "Outcome": "inactive"}
{"gene": "ZnT77C", "reagent": 2, "infection score, replicate 1": 3.01, "Outcome": "inactive"}
{"gene": "Teh1", "reagent": 1, "infection score, replicate 1": 1.98, "Outcome": "inactive"}
{"gene": "CycK", "reagent": 1, "infection score, replicate 1": 4.96, "Outcome": "inactive"}
{"gene": "CG14569", "reagent": 1, "infection score, replicate 1": 8.01, "Outcome": "inactive"}
{"gene": "NAAT1", "reagent": 1, "infection score, replicate 1": 2.13, "Outcome": "inactive"}
{"gene": "NAAT1", "reagent": 2, "infection score, replicate 1": 3.52, "Outcome": "inactive"}
{"gene": "CG32074", "reagent": 1, "infection score, replicate 1": 2.35, "Outcome": "inactive"}
{"gene": "CG32074", "reagent": 2, "infection score, replicate 1": 5.78, "Outcome": "inactive"}
{"gene": "CG7739", "reagent": 1, "infection score, replicate 1": 6.99, "Outcome": "inactive"}

Part of the list above in another layout.
att-ORFB + DPCoAC | infection score, replicate 1: 2.07; Outcome: inactive
ZnT77C #1 | infection score, replicate 1: 17.4; Outcome: inactive
